A mixed list of measured activities; the numbers were collected in NIAID ChemDB.

Shared fields: growth or infection tests; agent: Candida albicans

A number after MIC or MFC names an inhibition level or a share of isolates. Blank or dashed fields: not listed here. Rows are shuffled and stem from different studies. a–b is a range or a potency band. ECn is the concentration giving n% inhibition of infection, replication or growth.

COc1cc(C(=O)CO[C@H]2C[C@](C)(O)C=C[C@@]3(C)CC[C@@](O)(C(C)C)[C@H]23)ccc1O ; method: broth dilution ; read-out: EC90 ; value: >50 µg/mL
c1ccc(C(c2ccccc2)n2nnc3ccccc32)cc1 ; method: agar ; read-out: MIC90 ; value: >256 µg/mL
C[C@H]1[C@H](O)[C@@H](C)/C=C/C=C/C=C/C=C/C=C/C=C/C=C/[C@H](O[C@@H]2O[C@H](C)[C@@H](O)[C@H](N)[C@@H]2O)C[C@@H]2O[C@](O)(C[C@@H](O)C[C@@H](O)CC[C@H](O)[C@@H](O)C[C@@H](O)CC(=O)O[C@H]1C)C[C@H](O)[C@H]2C(=O)O ; read-out: MIC ; strain: Isolate 5 ; value: 0.5 µg/mL
Clc1ccc(C(c2ccccc2)n2cnc3ccccc32)cc1 ; method: agar ; read-out: MIC90 ; value: 16 µg/mL
C/C=C(\C)C(=O)O[C@@H]1C=C(C)CC[C@]2(O)[C@@H](C(C)C)CC(=O)[C@]12C ; read-out: MIC ; strain: SC5314 ; value: >50 µg/mL
CCC(C)n1ncn(-c2ccc(N3CCN(c4ccc(OC[C@H]5CO[C@](Cn6cncn6)(c6ccc(Cl)cc6Cl)O5)cc4)CC3)cc2)c1=O ; read-out: MIC90 ; strain: ATCC 90028 ; value: 0.091 µg/mL
O=C(Cc1csc2nc(-c3ccc(Br)cc3)cn12)NNC(=S)Nc1ccc(Cl)cc1 ; read-out: MIC ; strain: ATCC 10231 ; value: >32 µg/mL
C=CCc1ccc(O)c(OC)c1 ; method: turbidity ; read-out: MIC90 ; strain: ATCC 90028 ; value: 475 µg/mL
CC1=CC[C@@]2(C)CC[C@@](O)(C(C)C)[C@@H]2[C@@H](OCC(=O)c2ccc(O)cc2)C1 ; method: broth dilution ; read-out: EC90 ; value: >50 µg/mL
CCCCNC(=S)NNC(=O)Cc1csc2nc(-c3ccc(Br)cc3)cn12 ; read-out: MIC ; strain: ATCC 10231 ; value: >32 µg/mL
N=C(N)c1ccc(-c2cc3ccc(C(=N)N)cc3s2)cc1 ; read-out: MIC ; value: 10 µg/mL
O=C1CCC(c2ccccc2)=NN1Cc1n[nH]c(=S)n1-c1ccc(Br)cc1 ; read-out: MIC ; value: 5 µg/mL
O=C(Cc1csc2nc(-c3ccc(Br)cc3)cn12)NNC(=S)Nc1ccc(Br)cc1 ; read-out: MIC ; strain: ATCC 10231 ; value: >32 µg/mL
c1ccc(C(c2ccccc2)n2cncn2)cc1 ; method: broth dilution ; read-out: MFC ; value: >256 µg/mL
O=C(N/N=C/c1coc2ccccc2c1=O)c1ccccc1O ; read-out: MIC ; strain: PN-10 ; value: 250–400 µg/mL
Clc1ccc(COc2ccc(C(c3ccc4ccccc4c3)n3ccnc3)cc2)c(Cl)c1 ; read-out: MIC90 ; strain: 17 strains ; value: ≥256 µg/mL
Cc1ccc(NC(=S)NNC(=O)Cc2csc3nc(-c4ccc(Br)cc4)cn23)cc1 ; read-out: MIC ; strain: ATCC 10231 ; value: >32 µg/mL
CC1S[C@H](c2ccc3c(c2)OCO3)N(c2nc(N3CCOCC3)n[nH]2)C1=O ; method: broth dilution ; read-out: MIC ; strain: A39 ; value: 12.2 µg/mL
COc1ccc(C2CC(c3ccc4ccccc4c3)=Cc3[nH][nH]c(=O)c32)cc1 ; read-out: MIC ; value: 50 µg/mL
CC(C)[C@]1(O)CC[C@]2(C)C=C[C@](C)(O)C[C@H](OCC(=O)c3ccccc3)[C@H]21 ; method: broth dilution ; read-out: EC90 ; value: >50 µg/mL
Cc1ccc([C@H]2SCC(=O)N2c2nc(N3CCOCC3)n[nH]2)cc1 ; method: broth dilution ; read-out: MIC ; strain: A39 ; value: 12.5 µg/mL
Fc1ccc(COc2ccc(C(c3ccc(-c4ccccc4)cc3)n3ccnc3)cc2)c(F)c1.O=[N+]([O-])O ; read-out: Mean MIC ; strain: 16 strains ; value: ≥256 µg/mL
CCNC1Oc2ccc(C)cc2C(=O)/C1=C/Nc1ccc2nc(Sc3ccc([N+](=O)[O-])cc3[N+](=O)[O-])sc2c1 ; read-out: MIC ; strain: PN-10 ; value: 250 µg/mL
N=C(N)c1cccc(-c2cc3cc(C(=N)N)ccc3[nH]2)c1 ; read-out: MIC ; value: >60 µg/mL
CN1CCN(c2n[nH]c(N3C(=O)CS[C@@H]3c3ccc4c(c3)OCO4)n2)CC1 ; method: broth dilution ; read-out: MIC ; strain: 116.98 ; value: 1.56 µg/mL
O=c1[nH][nH]c2c1C(c1ccc(F)cc1)CC(c1ccc3ccccc3c1)=C2 ; read-out: MIC ; value: 12.5 µg/mL
O=C(N/N=C/c1coc2ccccc2c1=O)c1ccncc1 ; read-out: MIC ; strain: PN-10 ; value: 250–400 µg/mL
O=C1CCC(c2ccc(Br)cc2)=NN1Cc1n[nH]c(=S)n1-c1ccc(Cl)cc1 ; read-out: MIC ; value: 5 µg/mL
C/C(=C\c1cc2cc(C(=N)N)ccc2o1)c1cc2cc(C(=N)N)ccc2o1 ; read-out: MIC ; value: >60 µg/mL
O=C(c1ccccc1)C(c1ccccc1)n1cncn1 ; method: agar ; read-out: MIC90 ; value: 64 µg/mL
N=C(N)c1ccc2oc(-c3ccc(N)cc3)cc2c1 ; read-out: MIC ; value: >60 µg/mL
O=C1CCC(c2ccc(Br)cc2)=NN1Cc1n[nH]c(=S)n1-c1ccccc1 ; read-out: MIC ; value: 8 µg/mL
CCNC(=S)NNC(=O)Cc1csc2nc(-c3ccc(Br)cc3)cn12 ; read-out: MIC ; strain: ATCC 10231 ; value: >32 µg/mL
COc1cc(C(=O)O[C@H]2C[C@@]3(C)O[C@H]3C[C@@]3(C)CC[C@@](O)(C(C)C)C23)ccc1O ; read-out: MIC ; strain: SC5314 ; value: >50 µg/mL
Cc1ccc(C2=NN(Cc3n[nH]c(=S)n3-c3ccccc3)C(=O)CC2)cc1 ; read-out: MIC ; value: 7 µg/mL
CCNC1Oc2cc(C)c(C)cc2C(=O)/C1=C/Nc1ccc2[nH]c(=S)sc2c1 ; read-out: MIC ; strain: PN-10 ; value: 250 µg/mL
O=c1[nH][nH]c2c1C(c1ccc(Br)cc1)CC(c1ccc3ccccc3c1)=C2 ; read-out: MIC ; value: 25 µg/mL
Clc1ccc(C(c2nccc3ccccc23)n2ccnc2)cc1.O=[N+]([O-])O ; read-out: MIC90 ; strain: 44 strains ; value: 64 µg/mL
O=C1CCC(c2ccccc2)=NN1Cc1n[nH]c(=S)n1-c1ccccc1 ; read-out: MIC ; value: 4 µg/mL
Clc1cccc(Cl)c1COc1ccc(C(c2ccc3ccccc3c2)n2ccnc2)cc1.O=[N+]([O-])O ; read-out: Mean MIC ; strain: 16 strains ; value: ≥256 µg/mL
N#CCC(=O)N/N=C/c1coc2ccc([N+](=O)[O-])cc2c1=O ; read-out: MIC ; strain: PN-10 ; value: 400 µg/mL
O=C1CCC(c2ccc(Cl)cc2)=NN1Cc1n[nH]c(=S)n1-c1ccc(Br)cc1 ; read-out: MIC ; value: 4 µg/mL
Fc1ccc(COc2ccc(C(c3ccc4ccccc4c3)n3ccnc3)cc2)cc1.O=[N+]([O-])O ; read-out: Mean MIC ; strain: 16 strains ; value: ≥256 µg/mL

6 of the rows above, restated:

compound,method,read-out,strain,value
Clc1ccc(C(c2nccc3ccccc23)n2ccnc2)cc1.O=[N+]([O-])O,-,MIC90,44 strains,64 µg/mL
C=CCc1ccc(O)c(OC)c1,turbidity,MIC90,ATCC 90028,475 µg/mL
Cc1ccc(NC(=S)NNC(=O)Cc2csc3nc(-c4ccc(Br)cc4)cn23)cc1,-,MIC,ATCC 10231,>32 µg/mL
O=C(c1ccccc1)C(c1ccccc1)n1cncn1,agar,MIC90,-,64 µg/mL
Clc1cccc(Cl)c1COc1ccc(C(c2ccc3ccccc3c2)n2ccnc2)cc1.O=[N+]([O-])O,-,Mean MIC,16 strains,≥256 µg/mL
C/C(=C\c1cc2cc(C(=N)N)ccc2o1)c1cc2cc(C(=N)N)ccc2o1,-,MIC,-,>60 µg/mL